# Reference: PubChem BioAssay AID1626 (SRMLSC, 2009)
# The other results are listed elsewhere or left out. Activity calls are given as the source filed them. No stated cut-off is given here; in the data, inconclusive means inhibition above about 80% without an active follow-up result; inactive means below that; test concentration not stated here.
# Assay: M. tuberculosis H37Rv growth inhibitors, H37Rv strain (AID 1626);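 further: bacteria incubated seven days before Alamar blue readout; 0% = bacteria only wells and 100% = bacteria with antibiotic wells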
# Conditions: hits give high values, concentration not given here
row,SMILES,inhibition
1,C[C@@H]1C=CCP(=O)(Oc2ccccc2)O1 (stereo partly specified),inactive: -0.38%
2,C[C@H]1OP(=O)(Oc2ccccc2)C[C@@H]2O[C@@H]21 (stereo partly specified),inactive: -14.4%
3,CC(=O)Nc1ccc(Oc2c([N+](=O)[O-])cc([N+](=O)[O-])cc2[N+](=O)[O-])cc1,inactive: 3.4%
4,CC(=O)Nc1ccc([As](=O)(O)O)c(O)c1,inactive: 2.74%
5,CCOc1ccc(C2=NCC(CBr)S2)cc1 (stereo unspecified),inactive: -2.28%
6,O=P1(Nc2nc3ccc(Cl)cc3s2)COc2ccccc2O1 (stereo unspecified),inactive: 1.24%
7,CC(C)(C)C(=O)NC(Sc1ccccc1)C(Cl)(Cl)Cl (stereo unspecified),inactive: 5.12%
8,CCC(=O)N1C2C3N(C(=O)CC)C1C1N(C(=O)CC)C(C(N1C(=O)CC)N3C(=O)CC)N2C(=O)CC,inactive: -4.83%
9,CC(=O)NC(SC(=S)N(CC(C)C)CC(C)C)C(Cl)(Cl)Cl (stereo unspecified),inactive: 31.4%
10,Cc1ccc(OP(=O)(Nc2ccccn2)Oc2ccc(C)cc2)cc1,inactive: 2.02%
11,COC(=O)c1cc2c(s1)N=C(c1ccccc1)N(C)P2(=O)N1CCOCC1 (stereo unspecified),inactive: 1.1%
12,CN(C)C(=O)Oc1noc2ccccc12,inactive: -0.42%
13,Cc1ccccc1OP(=O)(Nc1ccccn1)Oc1ccccc1C,inactive: 4.79%
14,Cc1ccc(NP(=O)(Oc2cccc(C)c2)Oc2cccc(C)c2)nc1,inactive: 0.9%
15,CCOC(=O)NC(Sc1ccccc1)C(Cl)(Cl)Cl (stereo unspecified),inactive: -6.52%
16,c1ccc(-c2nn[nH]n2)c(-c2nn[nH]n2)c1,inactive: -4.04%
17,CCNC(=S)/N=C(\N)N[N+](=O)[O-],inactive: 7.36%
18,O=C(NC1CCS(=O)(=O)C1)NP(=S)(Oc1ccccc1)Oc1ccccc1 (stereo unspecified),inactive: 2.42%
19,O=[As](O)(c1ccccc1)c1ccc(O)cc1,inactive: -13.6%
20,CC(=O)NC(SC(=S)N(C)C)C(Cl)(Cl)Cl (stereo unspecified),inactive: -14.9%
21,O=[N+]([O-])c1ncn(CCn2cnc([N+](=O)[O-])n2)n1,inactive: -2.97%
22,O=C(OC1CN2CCC1CC2)c1cccc(Cl)c1 (stereo unspecified),inactive: -4.66%
23,Nc1ccc([As](=O)(O)c2ccc([N+](=O)[O-])cc2)cc1,inactive: 15.4%
24,C(Cc1nn[nH]n1)Cc1nn[nH]n1,inactive: -4.98%
25,O=P(Nc1ccccn1)(c1ccc(Br)cc1)c1ccc(Br)cc1,inactive: 2.94%

row,SMILES,inhibition
1,C[C@H]1OP(=O)(Oc2ccccc2)[C@H](O)[C@H](O)[C@H]1N=[N+]=[N-] (stereo partly specified),inactive: -9.87%
2,O=P(Nc1nc2ccccc2s1)(c1ccccc1)c1ccccc1,inactive: 7.71%
3,CC(C)C(=O)NC(Sc1ccccc1)C(Cl)(Cl)Cl (stereo unspecified),inactive: 5.29%
4,O=P(Nc1nccs1)(c1ccccc1)c1ccccc1,inactive: -7.62%
5,c1nnnn1CCn1cnnn1,inactive: -1.24%
6,CCN(/C(=N/P(=O)(N1CCOCC1)N1CCOCC1)N1CCOCC1)c1ccc(OC)cc1,inactive: 0.33%
7,Nc1ccc([As](=O)(O)c2ccc(N)cc2)cc1,inactive: 27.5%
8,CC1CCN(C(=O)Oc2c(Cl)cc(Cl)c3cccnc23)CC1,inactive: 16.4%
9,CN(C)C(=O)OCCc1n(C)cc[n+]1C,inactive: -3.88%
10,CC(C)=N/N=C(\N)N[N+](=O)[O-],inactive: -7.33%
11,COc1ccc(C2=NCC(CBr)S2)cc1 (stereo unspecified),inactive: -8.33%
12,CCc1nc2c(n1)c1c(non1O)c1c2no[n+]1[O-],inactive: -0.9%
13,O=[N+]([O-])c1cc([N+](=O)[O-])c(CCNc2ccccc2)c([N+](=O)[O-])c1,inactive: 24.5%
14,Cc1ccc(NP(=O)(Oc2ccccc2)Oc2ccccc2)nc1,inactive: 7.52%
15,O=[N+]([O-])c1cccc2n[nH]nc12,inactive: -2.25%
16,CC(=O)N1C2C3N(C(C)=O)C1C1N(C(C)=O)C(C(N1C(C)=O)N3C(C)=O)N2C(C)=O,inactive: -5.56%
17,O=[N+]([O-])c1ncn(CCn2ncnc2[N+](=O)[O-])n1,inactive: 1.34%
18,CC(C)(C)C(=O)NC(Sc1ccncn1)C(Cl)(Cl)Cl (stereo unspecified),inactive: -0.24%
19,O=C(O)CNc1ccc([As](=O)(O)O)cc1,inactive: -14.1%
20,O=[N+]([O-])c1cccc(NC2=NCC(CBr)S2)c1 (stereo unspecified),inactive: 8.6%
21,O=C(Nc1cc([As](=O)(O)O)ccc1O)c1ccccc1,inactive: -12.4%
22,Nc1cccc2ccc([As](=O)(O)O)cc12,inactive: -8.84%
23,CCN(N=Nc1nonc1N)c1nonc1N,inactive: 2.29%
24,O=P(Nc1nc2ccc(Cl)cc2s1)(c1ccccc1)c1ccccc1,inactive: 60.3%
25,O=C(O)c1ccccc1[As](=O)(O)O,inactive: 12.8%

row,SMILES,inhibition
1,CC(=O)Nc1ccc([As](=O)(O)O)cc1,inactive: -10.8%
2,Cc1ccc(NP(=O)(Oc2ccccc2F)Oc2ccccc2F)nc1,inactive: 7.4%
3,CN(C(=O)Cc1ccc(Cl)c(Cl)c1)[C@H]1CCCC[C@@H]1N1CCCC1,inactive: -8.38%
4,CCOP(=O)(Nc1ccccc1)OCC,inactive: 5.46%
5,Cc1cc(SC(NC(=O)c2ccc(F)cc2)C(Cl)(Cl)Cl)ncn1 (stereo unspecified),inactive: 1.26%
6,Cc1c2non([O-])c-2c(C)[n+](=O)[n+]1[O-],inactive: -8.52%
7,O=C(NC(Sc1ccncn1)C(Cl)(Cl)Cl)c1ccccc1 (stereo unspecified),inactive: -1.03%
8,Oc1ccccc1CNc1ccccn1,inactive: 18.1%
9,CC(C)CC(=O)NC(Sc1ccc(Cl)cc1)C(Cl)(Cl)Cl (stereo unspecified),inactive: 1.94%
10,Cc1ccc(N/C(=N/P(=O)(N2CCOCC2)N2CCOCC2)N2CCOCC2)cc1,inactive: 0.64%
11,NC(=O)c1cc([N+](=O)[O-])cc([N+](=O)[O-])c1N,inactive: -6.02%
12,Clc1ccc(Cl)c(NC2=NCC(CBr)S2)c1 (stereo unspecified),inactive: -7.79%
13,CN1CCCC(OC(=O)C(c2ccccc2)c2ccccc2)C1 (stereo unspecified),inactive: 4.69%
14,Cc1ccc(OP(=O)(Nc2nccs2)Oc2ccc(C)cc2)cc1,inactive: 3.32%
15,COc1ccccc1OP(=O)(Nc1ccc(C)cn1)Oc1ccccc1OC,inactive: 3.81%
16,COc1ccc(N/C(=N/P(=O)(N2CCOCC2)N2CCOCC2)N2CCOCC2)cc1,inactive: -1.75%
17,Cc1c2c(nc3ccccc13)SC(C(Cl)Cl)C2 (stereo unspecified),inactive: 3.76%
18,Cc1cc(=O)[nH]c(N[N+](=O)[O-])n1,inactive: -6.45%
19,O=C(OC1CN2CCC1CC2)C12CC3CC(CC(C3)C1)C2 (stereo unspecified),inactive: -2.59%
20,COc1cc(I)ccc1[As](=O)(O)O,inactive: -6.74%
21,COc1ccc2nc(NP(=O)(c3ccccc3)c3ccccc3)sc2c1,inactive: 1.91%
22,ClCCSc1nnc(-c2cccnc2)o1,inactive: -12.2%
23,CC(C)c1ccc(OP(=O)(Nc2ccccn2)Oc2ccccc2F)cc1 (stereo unspecified),inactive: -1.07%
24,CC(C)NC(=O)NP(=O)(Oc1ccccc1)Oc1ccccc1,inactive: 8.43%
25,C[As](=O)(O)c1cccc(C(=O)O)c1,inactive: -6.02%

row,SMILES,inhibition
1,O=[As](O)(c1ccc(O)cc1)c1ccccc1O,inactive: 10.1%
2,Cc1ccc2nc3c(c(C)c2c1)CC(C(Cl)Cl)S3 (stereo unspecified),inactive: -4.05%
3,CCOC(=O)Nc1cccc([As](=O)(O)O)c1,inactive: -6.24%
4,O=P(Nc1ccccn1)(c1cccc2ccccc12)c1cccc2ccccc12,inactive: 3.34%
5,Cc1cc(SC(NC=O)C(Cl)(Cl)Cl)ncn1 (stereo unspecified),inactive: -0.85%
6,O=[N+]([O-])c1ccc(Nc2ccc(Oc3ccc([N+](=O)[O-])cc3[N+](=O)[O-])cc2)c([N+](=O)[O-])c1,inactive: 3.41%
7,Cc1cc(SC(NC(=O)c2ccccc2)C(Cl)(Cl)Cl)nc(C(C)C)n1 (stereo unspecified),inactive: -5.31%
8,CCOC(=O)c1ccc(NC(=O)C(C)(CCl)SC)cc1 (stereo unspecified),inactive: -5.69%
9,CCC(C)N(CC(C)C)C(=S)SC(NC(C)=O)C(Cl)(Cl)Cl (stereo unspecified),inactive: -3.37%
10,COP1(=S)c2c(C)nn(CCC#N)c2N=C(c2ccc(F)cc2)N1C (stereo unspecified),inactive: 0.5%
11,CC(C)/C=N\N=C(\N)N[N+](=O)[O-],inactive: 2.36%
12,CN(C(=O)Cc1ccc(Cl)c(Cl)c1)[C@@H]1CCCC[C@H]1N1CCCC1,inactive: 3.64%
13,CC1(CBr)Cn2c(nc3ccccc3c2=O)S1 (stereo unspecified),inactive: -10.6%
14,O=[As](O)(c1ccccc1Br)c1ccccc1Br,inactive: -6.63%
15,O=P1(Nc2ccccn2)COc2ccccc2OC1,inactive: -0.11%
16,CN(CCCl)Cc1cc(Cl)c(NC2=NCCN2)c(Cl)c1,inactive: -2.27%
17,CC(C)(C)C(=O)NC(Sc1ncccn1)C(Cl)(Cl)Cl (stereo unspecified),inactive: 1.16%
18,Clc1n[nH]nc1-c1nn[nH][15n]1,inactive: -1.95%
19,O=P1(Nc2ncccn2)COc2ccccc2OC1,inactive: -3.64%
20,Nc1cccc([As](=O)(O)c2ccccc2)c1,inactive: -6.61%
21,O=P1(Nc2ccc(Br)cn2)COc2ccccc2OC1,inactive: -14.6%
22,Cc1ccc(OCC(=O)OC2CN3CCC2CC3)cc1 (stereo unspecified),inactive: -5.49%
23,O=[As](O)(c1cccs1)c1cccs1,inactive: 1.1%
24,CC1CCC(C(C)C)C(OP(=O)(Nc2ccccn2)c2ccccc2)C1 (stereo unspecified),inactive: -0.2%
25,Cc1nn(-c2ccccc2)c2c1P(=O)(N1CCOCC1)N(C)C(c1ccccc1)=N2 (stereo unspecified),inactive: -8.48%

row,SMILES,inhibition
1,CN(C)C1(CNC(=O)c2ccc(S(C)(=O)=O)cc2)CCCCC1,inactive: -3.12%
2,O=C(/C=C/c1ccccc1)OC1CN2CCC1CC2 (stereo unspecified),inactive: 0.98%
3,NC(=O)Nc1ccc([As](=O)(O)O)cc1,inactive: -9.41%
4,CN(C(=O)Cc1ccccc1)[C@@H]1CC[C@]2(CCCO2)C[C@H]1N1CCCC1,inactive: -9.01%
5,CCOP1(=S)c2c(C)nn(CCC#N)c2N=C(c2ccc(F)cc2)N1C (stereo unspecified),inactive: -7.14%
6,CN(C(=O)Cc1ccc(Cl)c(Cl)c1)[C@H]1CC[C@@]2(CCCO2)C[C@@H]1N1CCCC1,inactive: -1.74%
7,O=[N+]([O-])c1ccc2c(c1)nnn2O,inactive: 1.18%
8,O=P(Nc1nccs1)(c1ccccc1)c1nc2ccccc2s1 (stereo unspecified),inactive: 15.9%
9,O=P(Nc1nccs1)(Oc1ccccc1)Oc1ccccc1,inactive: 1.85%
10,CCOP1(=S)c2c(C)nn(CCC#N)c2N=C(c2ccccc2F)N1C (stereo unspecified),inactive: 1.3%
11,CS(=O)(=O)c1cc([N+](=O)[O-])c2no[n+]([O-])c2c1,inactive: -12.7%
12,Nc1ccccc1[As](=O)(O)c1ccccc1,inactive: 6.07%
13,O=C(O)COc1ccc([As](=O)(O)O)cc1[N+](=O)[O-],inactive: -1.68%
14,Nc1cccc2c([As](=O)(O)O)cccc12,inactive: -10.5%
15,CCOP(=O)(Nc1cccc2ccccc12)OCC,inactive: 0.04%
16,COc1cc(C2NCCC3(OCCO3)C2(C)C)cc(OC)c1OC (stereo unspecified),inactive: 2.21%
17,O=C(OC1CN2CCC1CC2)c1ccc(Cl)cc1 (stereo unspecified),inactive: -7%
18,COc1cc(C(=O)NCC2(N3CCOCC3)CCCCC2)cc(Cl)c1OC(C)C,inactive: 8.36%
19,O=[As](O)(O)c1cccnc1,inactive: 2.66%
20,O=[As](O)(c1cccc(O)c1)c1cccc(O)c1,inactive: -6.2%
21,Cc1cccc(OCC(=O)OC2CN3CCC2CC3)c1 (stereo unspecified),inactive: -4.84%
